Anti-infective test results gathered from many reports (values: NIAID ChemDB through PubChem).

All rows: toxicity to cultured cells; cells: MT-2; endpoint: CC50

CCn is the concentration with n% toxicity to the cells. Conditions beyond the fields shown may differ between rows. An empty or dashed field is not shown. Two numbers with a dash give a range or band.

| structure | read by | result |
|---|---|---|
| COc1ccc(OC)c(CCNC(=S)Nc2ccnc(=O)[nH]2)c1F | MTT | >100 µM |
| Nc1nc(=O)n([C@@H]2C=C[C@H](CO)O2)cc1F | - | 9 µM |
| Cc1c(CCO)c(C2CC2)nn1CC(=O)N[C@@H](Cc1ccccc1)C(=O)N(C)c1ccc2c(c1)OC(F)(F)O2 | ATP | >20 µM |
| CC1(C)C=C2C3CCC4[C@@]5(C)CCC(=O)C(C)(C)C5[C@H](O)C[C@@]4(C)[C@]3(C)CC[C@@]2(C)CC1 | - | 10.52–53.85 µM |
| C=CCC(O)(c1c(NC(=O)OCC)[nH]c2cccc(Br)c12)C(F)(F)F | ATP | 54.3 µM |
| Cc1ccc(-c2c([C@H](OC(C)(C)C)C(=O)O)c(C)nc3sc4c(c23)CCCC4)c(O)c1 | - | >20 µM |
| CCCCC(O)(c1c(NC(=O)OCC)[nH]c2cccc(Br)c12)C(F)(F)F | ATP | 24 µM |
| Cc1cc2cc(C#N)cn2c(C)c1Nc1ccnc(Nc2ccc(C#N)cc2)n1 | MTT | 10.1 µM |
| Cc1c(C(=O)O)cccc1-c1ccc(/C=C2\SC(=S)N(c3cccc(C(F)(F)F)c3)C2=O)o1 | XTT | 24.5 µM |
| Cc1cccc(NC(=S)NCCc2ccccc2F)n1 | MTT | >60 µM |
| Cc1nn(C(C)C(=O)N[C@@H](Cc2ccccc2)C(=O)N(C)c2ccc3c(c2)OCO3)c(C2CC2)c1CCO | ATP | >20 µM |
| COc1ccc2c(c1)C1(c3ccccc3)SCCN1C2=O | - | 19.1 µM |
| Cc1nccnc1-c1ccc2c(=O)n(-c3ccc(Cl)c4c(NS(C)(=O)=O)nn(C)c34)c(C(Cc3cc(F)cc(F)c3)NC(=O)Cn3nc(C(F)F)c4c3C(F)(F)[C@@H]3C[C@H]43)nc2c1 | XTT | >0.5 µM |
| CCOC(=O)Nc1[nH]c2cccc(Br)c2c1C(C)(O)C(F)(F)F | ATP | 23.3 µM |
| COc1ccc(-c2ccc(C(=O)NC(CN)c3ncc(CO)s3)[nH]2)cc1OC | XTT / absorbance | >50 µM |
| N#Cc1cc(C#N)cc(Oc2cc(Cl)ccc2OCCn2ccc(=O)[nH]c2=O)c1 | - | 77 µM |
| Cc1nc(C(CN)NC(=O)c2ncc(-c3ccc(Cl)cc3)[nH]2)sc1CO | XTT / absorbance | >51 µM |
| Cc1nc2sc3c(c2c(-c2cccc(C#N)c2)c1C(OC(C)(C)C)C(=O)O)CCCC3 | - | >20 µM |
| Cc1nn(CCO)c(C2CC2)c1CC(=O)N[C@@H](Cc1ccccc1)C(=O)N(C)c1ccc2c(c1)OCO2 | ATP | >20 µM |
| CCOC(C(=O)O)c1c(C)nc2sc3c(c2c1-c1ccccc1O)CCCC3 | - | >20 µM |
| O=C(NC(CNC(=O)c1ccc(O)c(O)c1O)C(=O)O)c1cc(O)c(O)c(O)c1 | neutral red | >32 µM |
| Cc1ccc(-c2c([C@@H](OC(C)(C)C)C(=O)O)c(C)nc3sc4c(c23)CCCC4)c(O)c1 | - | >20 µM |
| Cc1c(-c2c([C@H](OC(C)(C)C)C(=O)O)cnc3ccccc23)cc(F)c2c1CCCO2 | - | 76 µM |
| Cc1ccnc2c1NC(=O)c1cccnc1N2C1CC1 | MTT | 50 µM |
| O=C(NCC(NC(=O)c1ccc(O)c(O)c1)C(=O)O)c1ccc(O)c(O)c1 | neutral red | >39 µM |
| Cc1nc2sc3c(c2c(-c2cccc4c2cnn4C)c1C(OC(C)(C)C)C(=O)O)CCCC3 | - | >20 µM |
| COC(=O)C(CCCNC(=O)/C=C/c1cc(OC)c(OC)c(OC)c1)NC(=O)/C=C/c1cc(OC)c(OC)c(OC)c1 | neutral red | >56 µM |
| C=C1[C@@H](OC(C)=O)[C@H]2[C@@H](OC(C)=O)[C@](C)(OC(C)=O)C[C@]2(OC(C)=O)[C@H](OC(C)=O)[C@H](C)/C=C/C(C)(C)C(=O)[C@@H](OC(C)=O)[C@H]1OC(C)=O | propidium iodide / ATP / flow cytometry | >100 µM |
| CCOC(=O)Nc1[nH]c2ccc(Cl)cc2c1C(C)(O)C(F)(F)F | ATP | >200 µM |
| CCC(C(=O)N[C@@H](Cc1ccccc1)C(=O)N(C)c1ccc2c(c1)OCO2)n1nc(C)c(CCO)c1C1CC1 | ATP | >20 µM |
| COC(=O)C(CCCNC(=O)c1ccc(O)c(O)c1)NC(=O)c1ccc(O)c(O)c1 | neutral red | >37 µM |
| CCOC(=O)C(C)N1C(=O)S/C(=C\c2ccc(-c3cc(C(=O)O)ccc3C)o2)C1=O | XTT | >372.8 µM |
| Cc1nc(C(CN(C)C)NC(=O)c2ccc(-c3ccc(Cl)c(F)c3)[nH]2)sc1CO | XTT / absorbance | >40 µM |
| N#Cc1cc(Cl)cc(Oc2ccc(Cl)cc2OCCn2cc(F)c(=O)[nH]c2=O)c1 | - | 13 µM |
| Cc1nc2sc3c(c2c(-c2ccc4cnn(C)c4c2)c1C(OC(C)(C)C)C(=O)O)CCCC3 | - | >20 µM |
| C=CCC(O)(c1c(NC(=O)OCC)[nH]c2cc(Cl)cc(Cl)c12)C(F)(F)F | ATP | >200 µM |
| Cc1cc(C)nc(NC(=S)NCCc2c(Cl)cccc2Cl)c1 | MTT | 93 µM |
| O=C(O)c1cc(-c2ccc(/C=C3\SC(=S)N(Cc4cccnc4)C3=O)o2)ccc1Cl | XTT | >350.4 µM |
| Cc1nccnc1-c1ccc2c(=O)n(-c3ccc(Cl)c4c(NS(C)(=O)=O)nn(C)c34)c([C@H](Cc3cc(F)cc(F)c3)NC(=O)Cn3nc(C(F)F)c4c3C(F)(F)[C@@H]3C[C@H]43)nc2n1 | XTT | >0.5 µM |
| O=C(O)c1cc(-c2ccc(/C=C3\SC(=S)N(c4cccc([N+](=O)[O-])c4)C3=O)o2)ccc1Cl | XTT | >328 µM |
| N#Cc1ccc(Oc2cc(Cl)cc(Cl)c2)c(OCCn2ccc(=O)[nH]c2=O)c1 | - | >61 µM |
| Cn1nc(NS(C)(=O)=O)c2c(Cl)ccc(-n3c([C@H](Cc4cc(F)cc(F)c4)NC(=O)Cn4nc(C(F)F)c5c4C(F)(F)[C@@H]4C[C@H]54)nc4nc(-c5cccnc5)ccc4c3=O)c21 | XTT | >0.1 µM |
| Cc1nc2sc3c(c2c(-c2ccc(Cl)cc2)c1[C@H](OC(C)(C)C)C(=O)O)CCCC3 | - | >20 µM |
| NS(=O)(=O)c1ccc(NC(=S)NCCc2ccccc2F)cc1 | MTT | ≥100 µM |
| Cc1nc2sc3c(c2c(-c2cnc4[nH]ccc4c2)c1C(OC(C)(C)C)C(=O)O)CCCC3 | - | >20 µM |
| COC(=O)C(CCCCNC(=O)/C=C/c1cc(O)c(O)c(O)c1)NC(=O)/C=C/c1cc(O)c(O)c(O)c1 | neutral red | >62 µM |
| CCOC(=O)Nc1[nH]c2cc(Cl)cc(Cl)c2c1C(=O)C(F)(F)F | ATP | 67.5 µM |
| Cc1cn([C@H]2C[C@H](N=[N+]=[N-])[C@@H](CO)O2)c(=O)[nH]c1=O | MTT | 70 µM |

A second listing of 3 rows from above:

| structure | read by | result |
|---|---|---|
| Cc1nc2sc3c(c2c(-c2ccc(Cl)cc2)c1[C@H](OC(C)(C)C)C(=O)O)CCCC3 | - | >20 µM |
| Cc1nc2sc3c(c2c(-c2cccc4c2cnn4C)c1C(OC(C)(C)C)C(=O)O)CCCC3 | - | >20 µM |
| Cc1cccc(NC(=S)NCCc2ccccc2F)n1 | MTT | >60 µM |